The text below walks through data of BindingDB's records for doi:10.1016/j.ejmech.2020.112549 (Sichuan University, 2020).

The nature of experiment [1]: Inhibition of reverse transcriptase L100I mutant in HIV-1 3B infected in human MT4 cells assessed as reduction in virus-induced cytopathic effect incubated for 5 days by MTT assay. (Protection from cytopathic effect is a common read-out in antiviral testing.)
Experiment [2] is described as follows: Inhibition of reverse transcriptase K103N mutant in HIV-1 3B infected in human MT4 cells assessed as reduction in virus-induced cytopathic effect incubated for 5 days by MTT assay.
Experiment [3] is described as follows: Inhibition of reverse transcriptase Y188L mutant in HIV-1 3B infected in human MT4 cells assessed as reduction in virus-induced cytopathic effect incubated for 5 days by MTT assay.
A short description of experiment [4]: Inhibition of reverse transcriptase E138K mutant in HIV-1 3B infected in human MT4 cells assessed as reduction in virus-induced cytopathic effect incubated for 5 days by MTT assay.

Take `Cc1cc(C#N)cc(C)c1Oc1nc(Nc2ccc(C#N)cc2)nc(N)c1Br`: the EC50 in experiment [1] is 9.2 nM; in experiment [2], 2.3 nM; in experiment [3], 16 nM; in experiment [4] it was 18 nM.

One may read the EC50 as the concentration that produces a half-maximal response.
